Values from PubChem BioAssay AID1224833 (University of Georgia, 2016).
In all, the deposit lists about 12,000 reagents; shown is a random part of them. Over the whole deposit, about 5,600 (46%) got an active call. 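Active calls cover z-scores past 1 in both directions, so they include lowered as well as raised rotavirus replication.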 A number with no mark means an inactive call.

Assay: 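Human genes whose knock-down alters rotavirus replication in monkey cells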 (primary screen)
Cells: monkey MA104 kidney cells
Reagent: siRNA pool against human genes, 50 nM
Duration: 48 h knock-down before infection; read 24 h after infection
Challenge: infection with rotavirus strain RV3 two days after transfection; infectious dose for this stage not given
Detection: 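Rotavirus antigen per well by fluorescent immunoassay, normalised to non-targeting control wells on each plate and given as a standard z-score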
Scale: z-score vs non-targeting control: higher = more rotavirus replication than with non-targeting control
Hit rule: In these data the active calls have z-score vs non-targeting control at about -1 or lower, or at about 1 or higher
Calls: active = z-score beyond 1 either way; inactive = z-score within 1 of zero

For OR10R2 (GeneID 343406), the entry reads z-score vs non-targeting control 0.936.
After knock-down of CREBRF (GeneID 153222), the screen gave z-score vs non-targeting control -2.47 (active).
Depletion of PRSS48 (GeneID 345062) gave: z-score vs non-targeting control 1.34 (active).
With knock-down of NOX5 (GeneID 79400), the screen gave z-score vs non-targeting control -0.66.
With knock-down of RCC1L (GeneID 81554), the record shows z-score vs non-targeting control -0.374.
HEY2 (GeneID 23493) showed z-score vs non-targeting control 0.563.
Knock-down of PADI2 (GeneID 11240) gave: z-score vs non-targeting control -0.778.
ZNF740 (GeneID 283337) scored z-score vs non-targeting control 1.67 (active).
For OSM (GeneID 5008), the entry reads z-score vs non-targeting control -0.596.
Depletion of HNRNPH3 (GeneID 3189) resulted in: z-score vs non-targeting control -2.76 (active).
ZNF396 (GeneID 252884) gave z-score vs non-targeting control 0.0963.
Knock-down of UNC5CL (GeneID 222643) resulted in: z-score vs non-targeting control 0.823.
Against CIAO3 (GeneID 64428), the values are z-score vs non-targeting control -0.677.
Against PCDHA4 (GeneID 56144), the entry reads z-score vs non-targeting control -0.427.
AARS2 (GeneID 57505) showed z-score vs non-targeting control -0.394.
For ZNF18 (GeneID 7566), the entry reads z-score vs non-targeting control 2.21 (active).
Silencing of PABPC3 (GeneID 5042) resulted in: z-score vs non-targeting control 0.149.
After knock-down of CCL23 (GeneID 6368) the results were z-score vs non-targeting control -0.798.
TAS2R39 (GeneID 259285) scored z-score vs non-targeting control -2.02 (active).
Silencing of CEBPB (GeneID 1051) resulted in: z-score vs non-targeting control 2.28 (active).
Knock-down of CLN6 (GeneID 54982) gave: z-score vs non-targeting control -0.269.
Against NDUFB10 (GeneID 4716), the values are z-score vs non-targeting control -1.15 (active).
After knock-down of CALHM3 (GeneID 119395) the results were z-score vs non-targeting control -1.06 (active).
ZNF639 (GeneID 51193) gave z-score vs non-targeting control 0.403.
For GPR149 (GeneID 344758), the values are z-score vs non-targeting control -0.629.
KPNA1 (GeneID 3836) showed z-score vs non-targeting control -1.34 (active).
INSM2 (GeneID 84684) scored z-score vs non-targeting control -1.63 (active).
Depletion of MYRIP (GeneID 25924) resulted in: z-score vs non-targeting control 0.0202.
After knock-down of CABP1 (GeneID 9478), the record shows z-score vs non-targeting control -0.87.
With knock-down of RIOX2 (GeneID 84864) the results were z-score vs non-targeting control -0.58.
Depletion of OR5M11 (GeneID 219487) gave: z-score vs non-targeting control 0.565.
ZNF121 (GeneID 7675) gave z-score vs non-targeting control -1.7 (active).
TTC32 (GeneID 130502) scored z-score vs non-targeting control 1.54 (active).
Against TRAPPC14 (GeneID 55262), the values are z-score vs non-targeting control 2.82 (active).
After knock-down of DACT2 (GeneID 168002), the record shows z-score vs non-targeting control -1.66 (active).
After knock-down of TMEM53 (GeneID 79639) the results were z-score vs non-targeting control -2.07 (active).
SI (GeneID 6476) scored z-score vs non-targeting control 1.61 (active).
Depletion of ARMC2 (GeneID 84071) came out at: z-score vs non-targeting control 0.903.
With knock-down of NRDE2 (GeneID 55051), the screen gave z-score vs non-targeting control 0.84.
AAMDC (GeneID 28971) scored z-score vs non-targeting control -0.872.
SIRT1 (GeneID 23411) showed z-score vs non-targeting control 1.12 (active).
UNC13C (GeneID 440279) scored z-score vs non-targeting control -1.3 (active).
Silencing of ZDHHC2 (GeneID 51201) gave: z-score vs non-targeting control 1.2 (active).
EFCAB14 (GeneID 9813) showed z-score vs non-targeting control 0.16.
Silencing of SLC25A2 (GeneID 83884) came out at: z-score vs non-targeting control -1.3 (active).
SH2D1B (GeneID 117157) scored z-score vs non-targeting control -0.543.
For TSPAN9 (GeneID 10867), the entry reads z-score vs non-targeting control -1.34 (active).
Against PSMB9 (GeneID 5698) the deposit lists z-score vs non-targeting control 0.899.
TULP1 (GeneID 7287) showed z-score vs non-targeting control 1.97 (active).
Silencing of SAMD7 (GeneID 344658) gave: z-score vs non-targeting control 0.44.
Knock-down of XAGE5 (GeneID 170627) resulted in: z-score vs non-targeting control -0.561.
After knock-down of SRD5A2 (GeneID 6716) the results were z-score vs non-targeting control -2.86 (active).
With knock-down of LZTS1 (GeneID 11178), the record shows z-score vs non-targeting control -2.17 (active).
Depletion of RPA4 (GeneID 29935) resulted in: z-score vs non-targeting control -0.276.
CD109 (GeneID 135228) scored z-score vs non-targeting control -0.477.
Depletion of SMPD2 (GeneID 6610) resulted in: z-score vs non-targeting control 3.44 (active).
After knock-down of ZP1 (GeneID 22917), the record shows z-score vs non-targeting control -1.82 (active).
For ACSL1 (GeneID 2180), the values are z-score vs non-targeting control -0.677.
ADAMTSL3 (GeneID 57188) showed z-score vs non-targeting control 0.483.
Against DEFB129 (GeneID 140881), the values are z-score vs non-targeting control -1.05 (active).
